Source: patent US20230310414A1

Tested on: SARS-CoV-2 Spike (S) protein treated human macrophages
Test: cell viability of Spike protein treated human macrophages
Conditions: nanomolar concentrations, within 2 hours of treatment

O.O=C(OC[C@H]1O[C@@H](OC(=O)c2cc(O)c(O)c(O)c2)[C@H](OC(=O)c2cc(O)c(O)c(O)c2)[C@@H](OC(=O)c2cc(O)c(O)c(O)c2)[C@@H]1OC(=O)c1cc(O)c(O)c(O)c1)c1cc(O)c(O)c(O)c1
cell viability of treated macrophages: without compromising cell viability
